Experimental data: patent US20120219613A1 (priority 2009, published 2012)

Columns and labels:
[1] = tested on: RVFV-ZH501; design: species or system mice; settings: mouse, in vivo, ip
[2] = tested on: HIV-1 (pNL-GFPΔenv) psuedotyped with VSV-G; type: cell-based

C=CCN1C(=O)/C(=C/c2ccc(-c3ccccc3)o2)SC1=S [LJ-001, (Z)-3-Allyl-5-(5-phenyl-2-furyl)methylene-4-oxothiazolidine-2-thione]
animals in which mortality was prevented [1]: 100% | cellular entry of the lentiviral genome [2]: inhibited regardless of the envelope
